Measured values from several laboratories, pooled; numbers as filed in NIAID ChemDB.

Shared fields: tests in culture

Lines come from different laboratories, so protocols vary. An empty or dashed field is not shown. MIC50, MIC90 and the like: level of inhibition, or share of isolates inhibited. a–b is a range or a potency band. ECn is the concentration giving n% inhibition of infection, replication or growth. Percent inhibition refers to the dose given; in toxicity tests it is the harm to the cells.

C=C/C(C)=C/[C@@]1(C)SC(=O)C(C)=C1O ; agent: Escherichia coli ; strain or isolate: UB1005 (TLM-S) ; measure: MIC ; value: 150 µM
COc1ccc(-n2c(C(=O)N[C@H](c3ccccc3)C(F)(F)F)c3n(c2=O)CCN(C(=O)c2ccc(Br)c(Cl)c2)C3)cc1 ; agent: Hepatitis B virus ; cell line: HepG2.117 ; read by: PCR ; measure: EC50 ; value: 0.1–0.5 µM
CCO/N=C/c1ccc(OCCC2CCN(c3ccc(Cl)nn3)CC2)cc1 ; agent: Rhinovirus ; strain or isolate: CH79 (ICAM-1 receptor group 38) ; cell line: KB ; read by: neutral red ; measure: EC50 ; value: 0.023 µM
NC(=S)Nc1cccc(OCCCCCOc2ccc3ncccc3c2)c1 ; agent: Hepatitis C virus ; cell line: Ava5-EG(delta4AB)SEAP ; read by: reporter gene / fluorescence ; measure: EC50 ; value: 0.001–1 µM
O=C(NCc1ccccc1-n1cccn1)c1c2n(c(=O)n1-c1ccc(OC3CC3)cc1)CCN(C(=O)c1ccc(Br)c(Cl)c1)C2 ; agent: Hepatitis B virus ; cell line: HepG2.117 ; read by: PCR ; measure: EC50 ; value: <0.1 µM
O=c1[nH]c(=O)n([C@H]2C[C@H](O)[C@@H](CO)O2)cc1I ; agent: Varicella zoster virus ; strain or isolate: OKA ; cell line: HELF ; read by: plaque count ; measure: inhibition ; dose: 10 µg/mL ; value: 100%
CN[C@H]1CC[C@@H](c2ccc(Cl)c(Cl)c2)c2ccccc21 ; agent: Cryptococcus neoformans ; strain or isolate: UA 491 ; read by: broth dilution ; measure: MFC ; value: 8 µg/mL
O=C(NCc1ccc(Cl)cc1)c1c[nH]c2c(F)cccc2c1=O ; agent: Human cytomegalovirus ; strain or isolate: SAL ; read by: plaque count ; measure: EC50 ; value: 18 µM
NC(=S)Nc1cccc(OCCCCCNc2ccccc2C2CCCCC2)c1 ; agent: Hepatitis C virus ; cell line: Ava5-EG(delta4AB)SEAP ; read by: reporter gene / fluorescence ; measure: EC50 ; value: 0.001–1 µM
CCC(C)CC(C)CCCCCCCCC(=O)N[C@H]1C[C@@H](O)[C@H](NCCN)NC(=O)[C@@H]2[C@@H](O)CCN2C(=O)[C@H]([C@H](O)CCN)NC(=O)[C@H]([C@H](O)[C@@H](O)c2ccc(O)cc2)NC(=O)[C@@H]2C[C@@H](O)CN2C(=O)[C@H]([C@@H](C)O)NC1=O ; agent: Cryptococcus gattii ; strain or isolate: CBS 11816 ; read by: broth dilution ; measure: MIC ; value: 16 µg/mL
CCOC(=O)c1c(C)nc(NCCCCNc2ccnc3cc(Cl)ccc23)nc1-c1ccc(F)cc1 ; agent: Cryptococcus gattii ; strain or isolate: L-28/02 ; measure: MIC99 ; value: 8 µg/mL
Cc1cn([C@@H]2O[C@H](CO)[C@@H](O)[C@@H]2O)c(=O)[nH]c1=O ; agent: Varicella zoster virus ; strain or isolate: Kawaguchi ; cell line: HELF ; read by: plaque count ; measure: inhibition ; dose: 0.01 µg/mL ; value: 0%
Cc1cc(-c2ccc(N=Nc3c(S(=O)(=O)O)cc4cc(S(=O)(=O)O)cc(N)c4c3O)c(C)c2)ccc1N=Nc1c(S(=O)(=O)O)cc2cc(S(=O)(=O)O)cc(N)c2c1O ; agent: Adenovirus ; strain or isolate: TYPE 3 ; cell line: Human embryonic lung cells ; read by: cytopathic effect ; measure: inhibition ; dose: 5 µg/mL ; value: 0%
Oc1ccccc1N=Cc1ccccc1 ; agent: Cryptococcus gattii ; strain or isolate: 29/10893 ; measure: MIC99 ; value: 8 µg/mL
COc1ccc(CNC(=O)c2c3n(c(=O)n2-c2ccc(OC(C)C)cc2)CCN(C(=O)c2ccc(Br)c(Cl)c2)C3)c(F)c1 ; agent: Hepatitis B virus ; cell line: HepG2.117 ; read by: PCR ; measure: EC50 ; value: <0.1 µM
Oc1ccc(O)c(C=Nc2ccccc2O)c1 ; agent: Cryptococcus neoformans ; strain or isolate: C-3-1 ; read by: broth dilution ; measure: MIC ; value: 5.7 µg/mL
CCCCCCNC(=S)Nc1cccc(OCCCCCc2ccccc2)c1 ; agent: Hepatitis C virus ; cell line: Ava5-EG(delta4AB)SEAP ; read by: reporter gene / fluorescence ; measure: EC50 ; value: 0.001–1 µM
Nc1ncnc2c1ncn2C=C1CC1CO ; agent: Human cytomegalovirus ; strain or isolate: VR6200 (ganciclovir-susceptible) ; read by: plaque count ; measure: EC90 ; value: 4.3 µM
CC(=O)N[C@H]1[C@H]([C@H](O)[C@H](O)CO)OC(C(=O)O)=C[C@@H]1N=C(N)N ; agent: Influenza B virus ; strain or isolate: B/HONG KONG/5/72 ; cell line: MDCK ; measure: EC50 ; value: 1 µM
Nc1nc(=O)n([C@@H]2O[C@H](CO)[C@@H](O)[C@@H]2F)cc1I ; agent: Varicella zoster virus ; strain or isolate: KANNO ; cell line: HELF ; read by: plaque count ; measure: inhibition ; dose: 0.1 µg/mL ; value: 100%
O=C(Nc1ccc(S(=O)(=O)[O-])c2cccc(S(=O)(=O)[O-])c12)c1ccccc1 ; agent: Herpes simplex virus ; cell line: Human conjunctiva cells ; read by: cytopathic effect ; measure: inhibition ; dose: 50 µg/mL ; value: 0%
C=CCc1ccc(OC)c(OC)c1 ; agent: Candida albicans ; strain or isolate: 3054 ; read by: turbidity ; measure: MIC90 ; value: 350 µg/mL
O=S(=O)([O-])c1cc(S(=O)(=O)[O-])c2cc(NS(=O)(=O)c3ccccc3)ccc2c1 ; agent: Adenovirus ; strain or isolate: TYPE 3 ; cell line: Human amnion AV3 cells ; read by: cytopathic effect ; measure: inhibition ; dose: 10 µg/mL ; value: 0%
CCC(CC)O[C@@H]1C=C(C(=O)O)C[C@H](N)[C@H]1NC(C)=O ; agent: Influenza B virus ; strain or isolate: Isolate C33D ; cell line: MDCK ; read by: plaque count ; measure: EC50 ; value: 0.045 µg/mL
O=c1[nH]c(=O)n([C@H]2C[C@H](O)[C@@H](CO)O2)cc1/C=C/Br ; agent: Varicella zoster virus ; strain or isolate: Ohtomo ; cell line: HELF ; read by: plaque count ; measure: inhibition ; dose: 0.001 µg/mL ; value: 82%
CCOC(=O)/C=C/[C@H](C[C@@H]1CCNC1=O)NC(=O)[C@@H](CC(=O)[C@@H](NC(=O)c1cc(C)on1)C(C)C)Cc1ccc(F)cc1 ; agent: Rhinovirus ; strain or isolate: Isolate 31 ; cell line: OHIO HELA-I ; read by: cytopathic effect / visual reading ; measure: EC50 ; value: 0.02 µg/mL
NC(=S)Nc1cccc(OCCCCCCCOc2ccc(-c3ccccc3)cc2)c1 ; agent: Hepatitis C virus ; cell line: Ava5-EG(delta4AB)SEAP ; read by: reporter gene / fluorescence ; measure: EC50 ; value: 0.001–1 µM
CCOC(=O)c1cnc(NCCCCNc2ccnc3cc(Cl)ccc23)nc1C ; agent: Cryptococcus neoformans ; strain or isolate: 27JF ; measure: MIC99 ; value: 4 µg/mL
Nc1nc2c(ncn2COCCO)c(=O)[nH]1 ; agent: Varicella zoster virus ; strain or isolate: Ohtomo ; cell line: HELF ; read by: plaque count ; measure: inhibition ; dose: 0.1 µg/mL ; value: 61%
COc1cc(C#N)ccc1CNC(=O)c1c2n(c(=O)n1-c1ccc(OC(C)C)cc1)CCN(C(=O)c1ccc(Br)c(Cl)c1)C2 ; agent: Hepatitis B virus ; cell line: HepG2.117 ; read by: PCR ; measure: EC50 ; value: 0.1–0.5 µM
CCOC(=O)c1c(C)nc(OCCCNc2ccnc3cc(Cl)ccc23)nc1-c1ccccc1 ; agent: Cryptococcus gattii ; strain or isolate: 547/OTTI-97-PI-10 ; measure: MIC99 ; value: 16 µg/mL
O=S(=O)([O-])c1cc(NS(=O)(=O)c2ccccc2)c2c(S(=O)(=O)[O-])cc(S(=O)(=O)[O-])cc2c1 ; agent: Herpes simplex virus ; cell line: Human amnion AV3 cells ; read by: cytopathic effect ; measure: inhibition ; dose: 5 µg/mL ; value: 25%
Oc1cccc(C=Nc2ccccc2O)c1 ; agent: Cryptococcus gattii ; strain or isolate: 135L/03 ; measure: MIC99 ; value: 8 µg/mL
O=C(Nc1ccc2cc(S(=O)(=O)[O-])cc(S(=O)(=O)[O-])c2c1)c1ccccc1 ; agent: Herpes simplex virus ; cell line: Human amnion AV3 cells ; read by: cytopathic effect ; measure: inhibition ; dose: 50 µg/mL ; value: 45%
Cn1cc(C(=O)NCc2ccc(Cl)cc2)c(=O)c2cc(CN3CCOCC3)ccc21 ; agent: Varicella zoster virus ; strain or isolate: DY varicella isolate ; cell line: HFF ; read by: plaque count ; measure: EC50 ; value: 0.8 µM
NC(=S)Nc1cccc(OCCCCOc2ccccc2-c2ccccc2)c1 ; agent: Hepatitis C virus ; cell line: Ava5-EG(delta4AB)SEAP ; read by: reporter gene / fluorescence ; measure: EC50 ; value: 0.001–1 µM
Nc1cc(S(=O)(=O)[O-])cc2cc(S(=O)(=O)[O-])ccc12 ; agent: Adenovirus ; strain or isolate: TYPE 3 ; cell line: Human amnion AV3 cells ; read by: cytopathic effect ; measure: inhibition ; dose: 10 µg/mL ; value: 0%

Again, the opening 5 rows:

smiles,agent,strain or isolate,cell line,read by,measure,dose,value
C=C/C(C)=C/[C@@]1(C)SC(=O)C(C)=C1O,Escherichia coli,UB1005 (TLM-S),,,MIC,,150 µM
COc1ccc(-n2c(C(=O)N[C@H](c3ccccc3)C(F)(F)F)c3n(c2=O)CCN(C(=O)c2ccc(Br)c(Cl)c2)C3)cc1,Hepatitis B virus,,HepG2.117,PCR,EC50,,0.1–0.5 µM
CCO/N=C/c1ccc(OCCC2CCN(c3ccc(Cl)nn3)CC2)cc1,Rhinovirus,CH79 (ICAM-1 receptor group 38),KB,neutral red,EC50,,0.023 µM
NC(=S)Nc1cccc(OCCCCCOc2ccc3ncccc3c2)c1,Hepatitis C virus,,Ava5-EG(delta4AB)SEAP,reporter gene / fluorescence,EC50,,0.001–1 µM
O=C(NCc1ccccc1-n1cccn1)c1c2n(c(=O)n1-c1ccc(OC3CC3)cc1)CCN(C(=O)c1ccc(Br)c(Cl)c1)C2,Hepatitis B virus,,HepG2.117,PCR,EC50,,<0.1 µM